A mixed list of measured activities; the numbers were collected in NIAID ChemDB.

All rows: cytotoxicity tests; read-out: CC50

Lines come from different laboratories, so protocols vary. CCn is the concentration with n% toxicity to the cells. An empty or dashed field is not shown.

SMILES	cells	method	value
CCOC(=O)/C=C/[C@H](CCC(N)=O)NC(=O)[C@H](Cc1ccccc1)NC(=O)[C@H](CC(C)C)NC(=O)OCc1ccccc1	H1-HELA	-	>50 µM
Nc1nc2c(ncn2[C@H]2C[C@H](F)[C@@H](CO)O2)c(=O)[nH]1	Primary duck hepatocytes	-	>200 µM
COCCCOc1cnc(CS(=O)c2nc3ccccc3[nH]2)c(C)c1	HEK293T	MTT	150 µM
OCc1cn(-c2ccnc3cc(Cl)ccc23)nn1	BGM	MTT	≥777 µM
COc1cc(OC)cc(-c2ccc(C(=O)N(Cc3cccc(OCCCCCC(=O)OC(=O)O)c3)C(C)C)cc2)c1	RAJI	-	>20 µM
C[C@H]1NCc2cc(-c3ccc4c(=O)c(C(=O)O)cn(C5CC5)c4c3OC(F)F)ccc21	CHL	-	>200 µg/mL
COc1ccc(C[C@H](N)C(=O)N[C@H]2[C@@H](O)[C@H](n3cnc4c(N(C)C)ncnc43)O[C@@H]2CO)cc1	K562 (CRL-1573)	WST	0.16 µg/mL
NC(=NC1CCCCCCC1)c1ccc(N2CCN(c3ccc(C(N)=NC4CCCCCCC4)cc3)CC2)cc1	A549	-	>1.95 µg/mL
COc1cnc(CS(=O)c2nc3ccccc3[nH]2)c(C)c1-n1cccc1	HEK293T	MTT	42 µM
Nc1ncnc2c1ncn2C1CO[C@H](CO)[C@H]1CO	NC-37	-	16.44 µg/mL
Cn1cc(NC(=O)Nc2cc(C(=O)Nc3cc(C(=O)Nc4ccc(S(=O)(=O)O)c5cc(S(=O)(=O)O)ccc45)n(C)c3)n(C)c2)cc1C(=O)Nc1cc(C(=O)Nc2ccc(S(=O)(=O)O)c3cc(S(=O)(=O)O)ccc23)n(C)c1	Monocytes MIP-1alpha	-	<200 µM
Clc1ccc2c(-n3cc(-c4ccccc4)nn3)ccnc2c1	BGM	MTT	≥653 µM
CN[C@@H]1[C@H](O[C@@H]2OC[C@@H](O)[C@H](O)[C@H]2O)[C@@H](O)[C@H](O[C@H]2c3cc(C)c(C(=O)N[C@H](C)C(=O)O)c(O)c3-c3c(cc4c(c3O)C(=O)c3cc(OC)cc(O)c3C4=O)[C@@H]2O)O[C@@H]1C	CD4+ T-cell	MTS	>100 µM
OC1(c2cn(-c3ccnc4cc(Cl)ccc34)nn2)CCCCC1	BGM	MTT	≥609 µM
Cc1cc(C2CC2)n2nc(S(=O)(=O)Nc3c(C)ccc(Cl)c3C)nc2n1	K562 (CRL-1573)	WST	77 µg/mL
CCOC(=O)CCCCCOc1cccc(CN(C(=O)c2ccc(-c3cnc(OC)nc3OC)cc2)C(C)C)c1	HEK 293	-	>20 µM
CCCc1cc(=O)oc2c3c(c4c(c12)OC(C)(C)[C@H](O)[C@@H]4O)O[C@H](C)[C@@H](C)[C@@H]3O	CV-1	-	>100 µg/mL
Cc1cc(OCC(F)(F)F)cnc1CS(=O)c1nc2ccccc2[nH]1	HEK293T	MTT	50 µM
CC(C)N(Cc1cccc(OCCCCCC(=O)OC(=O)O)c1)C(=O)c1ccc(-c2cccc(Oc3ccccc3)c2)cc1	RAJI	-	<13.5 µM
FC(F)c1cn(-c2ccnc3cc(Cl)ccc23)nn1	BGM	MTT	≥694 µM
C=CCOc1nc(N)nc2c1ncn2/C=C1/C[C@@H]1CO	BSCL-1	-	118 µM
Cc1cc(COc2ccc(-c3cccc(C(=O)O)c3)cc2)cnc1CS(=O)c1nc2ccccc2[nH]1	HEK293T	MTT	95 µM
CC(C)=CCC1C[C@@]2(CC=C(C)C)C(=O)/C(=C(\O)c3ccccc3)C(=O)[C@](CC=C(C)C)(C2=O)C1(C)C	3T3.T4.CCR5	-	1.53 µM
CCCc1cc(=O)oc2c3c(c4c(c12)OC(C)(C)[C@H](O)[C@H]4OC(=O)c1cccc(Cl)c1)O[C@H](C)[C@@H](C)C3=O	CV-1	-	7 µg/mL
Cc1cc(C2CC2)n2nc(S(=O)(=O)Nc3c(C)cccc3C(C)C)nc2n1	K562 (CRL-1573)	WST	>128 µg/mL
NNC(=O)c1ccc(N2CCN(c3ccc(C(=O)NN)cc3)CC2)cc1	A549	-	60 µg/mL
CCCCCSc1nc(N)nc2c1ncn2/C=C1/C[C@@H]1CO	MEF	-	156 µM
CCN=C(N)c1ccc(N2CCN(c3ccc(C(N)=NCC)cc3)CC2)cc1	WI-38	-	>54.2 µg/mL
CCCc1cc(=O)oc2cc(O)c3c(c12)OC(C)(C)C=C3	CV-1	neutral red	2 µg/mL
COc1c(N2CCNC(C)C2)ccc2c(=O)c(C(=O)O)cn(C3CC3)c12	CHL	-	133 µg/mL
CCCc1cc(=O)oc2c3c(c4c(c12)OC(C)(C)[C@H](O)[C@H]4O)O[C@H](C)[C@@H](C)[C@@H]3O	CV-1	neutral red	5 µg/mL
NC(=Nc1ccccc1)c1ccc(N2CCN(c3ccc(C(N)=Nc4ccccc4)cc3)CC2)cc1	WI-38	-	>11.6 µg/mL
Cc1cc(CCCCCCCOc2ccc3c(c2)[nH]c2ccccc23)on1	WIS HELA	crystal violet	25 µg/mL
Cc1cc(OCCCOc2ccc(-c3cccc(C(=O)O)c3)cc2)cnc1CS(=O)c1nc2ccccc2[nH]1	HEK293T	MTT	>100 µM
Nc1nc(N)c2ncn(C3CO[C@H](CO)[C@H]3CO)c2n1	NC-37	-	79.7 µg/mL
Cn1cncc1C(=O)c1nccc2c1[nH]c1ccccc12	A-594	-	>5 µg/mL
Nc1ncnc2c1ncn2C1CO[C@H](CO)[C@H]1O	NC-37	-	43.44 µg/mL
CCCCCCN=C(N)c1ccc(N2CCN(c3ccc(C(N)=NCCCCCC)cc3)CC2)cc1	WI-38	-	>0.409 µg/mL
Cc1cc(C)n(CCCCCCOc2ccc3c(c2)oc2ccccc23)n1	WIS HELA	crystal violet	10 µg/mL
CC1(C)CCC[C@]2(C)[C@H]3C[C@@H](C4=CCOC4=O)CC3=CC[C@@H]12	P-388	absorbance	19.5 µM
COc1c(N2C[C@@H]3CCCN[C@@H]3C2)ccc2c(=O)c(C(=O)O)cn(C3CC3)c12	CHL	-	108 µg/mL
Cc1cc(CCCCCCCOc2cc(C)c3ccccc3n2)on1	WIS HELA	crystal violet	50 µg/mL
O=C(O)C(O)c1ccccc1	Macrophage	MTS	>1000 µg/mL
CCCc1cc(=O)oc2c(C(=O)CC)c(O)c3c(c12)OC(C)(C)C=C3	CV-1	neutral red	100 µg/mL
Nc1ccn(C[C@@H](CO)OCP(=O)(O)O)c(=O)n1	BSCL-1	-	>154 µM
CC[C@H](C)[C@H]1OC(=O)[C@H](C(C)C)N(C)C(=O)[C@@H]([C@@H](C)CC)OC(=O)[C@H](C(C)C)N(C)C(=O)[C@@H]([C@@H](C)CC)OC(=O)[C@H](C(C)C)NC1=O	NCI-H187	absorbance	2.29 µM
Nc1nc2c(ncn2COC(CO)CO)c(=O)[nH]1	MEF	-	>359 µM
CCOC(=O)CCCCCOc1cccc(CN(C(=O)c2ccc(-c3cc4ccccc4n3S(=O)(=O)c3ccccc3)cc2)C(C)C)c1	RAJI	-	>20 µM
CC(CCC(=O)N[C@@H](Cc1ccc(O)cc1)C(=O)O)C1CCC2C3CCC4C[C@H](O)CCC4(C)C3C[C@H](O)C12C	VK2/E6E7	XTT	238.3 µg/mL
c1ccc2[nH]c(-c3ccc(N4CCN(c5ccc(-c6nc7ccccc7[nH]6)cc5)CC4)cc3)nc2c1	WI-38	-	>71 µg/mL
Nc1nc2c(ncn2C2CO[C@H](CO)[C@H]2CO)c(=O)[nH]1	NC-37	-	58.67 µg/mL
CCCCCN=C(N)c1ccc(N2CCN(c3ccc(C(N)=NCCCCC)cc3)CC2)cc1	WI-38	-	>0.14 µg/mL
Cc1csc(CCCCCCCOc2cc(C)c3ccccc3n2)n1	WIS HELA	crystal violet	25 µg/mL
COC(=O)c1cccc(-c2ccc(OCCCOc3cnc(CS(=O)c4nc5ccccc5[nH]4)c(C)c3)cc2)c1	HEK293T	MTT	110 µM
C#CCNc1nc(N)nc2c1ncn2/C=C1/C[C@@H]1CO	BSCL-1	-	>185 µM

For reference, 7 entries again:

{"SMILES": "CCCc1cc(=O)oc2c3c(c4c(c12)OC(C)(C)[C@H](O)[C@H]4OC(=O)c1cccc(Cl)c1)O[C@H](C)[C@@H](C)C3=O", "cells": "CV-1", "value": "7 µg/mL"}
{"SMILES": "Cc1csc(CCCCCCCOc2cc(C)c3ccccc3n2)n1", "cells": "WIS HELA", "method": "crystal violet", "value": "25 µg/mL"}
{"SMILES": "CCCCCN=C(N)c1ccc(N2CCN(c3ccc(C(N)=NCCCCC)cc3)CC2)cc1", "cells": "WI-38", "value": ">0.14 µg/mL"}
{"SMILES": "O=C(O)C(O)c1ccccc1", "cells": "Macrophage", "method": "MTS", "value": ">1000 µg/mL"}
{"SMILES": "Nc1nc2c(ncn2[C@H]2C[C@H](F)[C@@H](CO)O2)c(=O)[nH]1", "cells": "Primary duck hepatocytes", "value": ">200 µM"}
{"SMILES": "CCOC(=O)CCCCCOc1cccc(CN(C(=O)c2ccc(-c3cnc(OC)nc3OC)cc2)C(C)C)c1", "cells": "HEK 293", "value": ">20 µM"}
{"SMILES": "Clc1ccc2c(-n3cc(-c4ccccc4)nn3)ccnc2c1", "cells": "BGM", "method": "MTT", "value": "≥653 µM"}